Measurements reported in PubChem BioAssay AID624099 (ICCB-Longwood, 2012).
Purpose: 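Host factors E2 relies on to silence an HPV18 LCR reporter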 (primary screen). System: human C33A cervical carcinoma cells (HPV-negative) stably expressing BPV1 E2 and an HPV18 LCR luciferase reporter. Knock-down reagent: siRNA pool against human genes, 40 nM. Time to read-out: 72 h. Detection: 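HPV18 LCR reporter light per well, converted to plate-wise z-scores that exclude control wells, and averaged over triplicate plates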. Direction: mean z-score and z-score: higher = stronger reporter signal, weaker E2 silencing. Rule for the call: 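Hit if mean z-score reaches 2 and two or more of three replicate z-scores also reach 2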.
The deposit covers about 21,000 reagents; below is a part drawn at random. Of all reagents, 497 (2.4%) were called active. 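Higher z means weaker E2 silencing; only reporter increases were scored, and knock-downs that hurt cell survival may mask genuine repressor factors.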 Reagents against one gene are numbered here.

gene | reagent no. | mean z-score | z-score, replicate A | z-score, replicate B | z-score, replicate C | outcome
STIMATE | 1 | 0.35 | 0.38 | 0.22 | 0.46 | inactive
KCNAB2 | 1 | -0.24 | -0.17 | -0.05 | -0.5 | inactive
TMC3 | 1 | 0.71 | 0.66 | 0.54 | 0.94 | inactive
LUC7L3 | 1 | 0.4 | 0.4 | 0.52 | 0.29 | inactive
LUC7L3 | 2 | -2.18 | -1.85 | -2.18 | -2.52 | inactive
GRIK4 | 1 | -0.38 | -0.13 | -0.57 | -0.43 | inactive
DBF4B | 1 | 0.05 | 0.53 | 0.04 | -0.41 | inactive
ZNF454 | 1 | 1.07 | 0.96 | 0.94 | 1.3 | inactive
GLMP | 1 | -1.06 | -1.09 | -1.15 | -0.93 | inactive
RPS17P6 | 1 | 0.16 | 1.1 | -0.42 | -0.21 | inactive
TCF7L1 | 1 | 1.3 | 0.28 | 3.42 | 0.22 | inactive
ANKRD26 | 1 | -0.32 | -0.39 | -0.16 | -0.39 | inactive
ZNF479 | 1 | -0.99 | -0.98 | -0.86 | -1.12 | inactive
SH3TC1 | 1 | -0.06 | -0.01 | 0.01 | -0.18 | inactive
DENND5A | 1 | 0.18 | 0.08 | 0.4 | 0.04 | inactive
ISCA1P1 | 1 | -0.81 | -0.7 | -1.01 | -0.74 | inactive
LOC390564 (retired record) | 1 | 0.35 | 0.3 | 0.28 | 0.48 | inactive
CR2 | 1 | 0.34 | 0.26 | 0.3 | 0.48 | inactive
HSPA4 | 1 | -0.86 | -0.63 | -1.22 | -0.73 | inactive
PRDM15 | 1 | -0.1 | -0.45 | -0.69 | 0.85 | inactive
LOC388361 (retired record) | 1 | -0.04 | -0.37 | 0.17 | 0.07 | inactive
CPT1C | 1 | 0.2 | 0.34 | 0.04 | 0.22 | inactive
PRM1 | 1 | 0.99 | 0.9 | 1.07 | 0.99 | inactive
CYP19A1 | 1 | 0.13 | 0.12 | 0.2 | 0.07 | inactive
ACAP2 | 1 | 0.79 | 0.57 | 0.92 | 0.9 | inactive
TNFRSF10A | 1 | 0.21 | 0.4 | 0.33 | -0.09 | inactive
FXYD6 | 1 | -1.01 | -0.81 | -1.05 | -1.18 | inactive
SULT1A3 | 1 | 1.52 | 1.68 | 1.48 | 1.41 | inactive
SLC35B2 | 1 | 1.33 | 1.18 | 1.32 | 1.49 | inactive
ORC5 | 1 | 0.87 | 0.92 | 0.78 | 0.92 | inactive
ULBP1 | 1 | -0.51 | -0.29 | -0.61 | -0.62 | inactive
NFX1 | 1 | -0.69 | -0.55 | -0.79 | -0.72 | inactive
LOC400861 (retired record) | 1 | -0.05 | -0.1 | -0.02 | -0.02 | inactive
MYH1 | 1 | -0.89 | -0.74 | -1.34 | -0.6 | inactive
SMC2 | 1 | -1.22 | -1.21 | -1.16 | -1.28 | inactive
ACOT13 | 1 | 1.19 | 0.82 | 1.64 | 1.12 | inactive
CUX2 | 1 | -0.08 | -0.48 | 0.07 | 0.16 | inactive
RGS10 | 1 | 0.37 | 0.46 | 0.18 | 0.48 | inactive
POU6F2 | 1 | 0.88 | 1 | 1.01 | 0.65 | inactive
LOC402300 (retired record) | 1 | 0.48 | 0.38 | 0.71 | 0.34 | inactive
BCL7C | 1 | -0.53 | -0.64 | -0.48 | -0.47 | inactive
CYTH2 | 1 | -0.75 | -0.66 | -0.94 | -0.64 | inactive
PRICKLE2 | 1 | 1.63 | 1.28 | 1.79 | 1.83 | inactive
VPS33A | 1 | 0.32 | 0 | 0.37 | 0.58 | inactive
SOX17 | 1 | -1.13 | -1.25 | -1.51 | -0.62 | inactive
ASIC4 | 1 | -1.84 | -2 | -1.71 | -1.81 | inactive
RPSAP47 | 1 | -2.4 | -2.54 | -2.18 | -2.48 | inactive
SGPP1 | 1 | -0.11 | -0.31 | 0.3 | -0.31 | inactive
RPL7L1P8 | 1 | -0.88 | -0.88 | -0.69 | -1.08 | inactive
WFIKKN1 | 1 | 1.11 | 1.31 | 0.67 | 1.34 | inactive
FAM32A | 1 | -0.15 | -0.11 | -0.45 | 0.11 | inactive
KIFC3 | 1 | 1.13 | 1.07 | 0.91 | 1.41 | inactive
LCA5 | 1 | -1.39 | -1.46 | -1.5 | -1.21 | inactive
LOC285658 (retired record) | 1 | -4.61 | -4.79 | -4.52 | -4.51 | inactive
PTPN18 | 1 | 1.56 | 1.75 | 1.73 | 1.19 | inactive
LINC00994 | 1 | 0.71 | 0.92 | 0.71 | 0.49 | inactive
PCDHGB2 | 1 | -0.11 | -0.05 | -0.18 | -0.11 | inactive
ATF7 | 1 | 0.22 | -0.26 | 0.24 | 0.67 | inactive
DCLRE1C | 1 | -0.28 | -0.35 | -0.28 | -0.21 | inactive
WT1-AS | 1 | -1.23 | -0.99 | -1.26 | -1.43 | inactive
RBP3 | 1 | -1.01 | -0.93 | -1.01 | -1.1 | inactive
USP17L7 | 1 | 1.47 | 1.06 | 1.7 | 1.64 | inactive
MVB12A | 1 | 0.51 | 0.37 | 0.62 | 0.53 | inactive
SON | 1 | -1.76 | -1.85 | -1.77 | -1.67 | inactive
RPL9 | 1 | 0.9 | 0.91 | 0.79 | 0.99 | inactive
KRT83 | 1 | 0.58 | 0.48 | 0.58 | 0.68 | inactive
CLBA1 | 1 | -2.13 | -2.24 | -2.16 | -1.99 | inactive
LOC402538 (retired record) | 1 | 1.41 | 1.1 | 1.32 | 1.81 | inactive
FLJ46552 (retired record) | 1 | -0.95 | -1.24 | -1.03 | -0.58 | inactive
NUP58 | 1 | 0.72 | 0.93 | 0.75 | 0.48 | inactive
SHISA5 | 1 | -0.53 | -0.14 | -0.68 | -0.77 | inactive
NAT8 | 1 | -0.44 | -0.68 | -0.12 | -0.51 | inactive
STXBP4 | 1 | -0.2 | -0.41 | -0.23 | 0.04 | inactive

Only “mean z-score”, for 12 of the entries above:
CPT1C	0.2
PRM1	0.99
CYP19A1	0.13
ACAP2	0.79
TNFRSF10A	0.21
FXYD6	-1.01
SULT1A3	1.52
SLC35B2	1.33
ORC5	0.87
ULBP1	-0.51
NFX1	-0.69
LOC400861 (retired record)	-0.05
